Read-outs that look alike come from different tables or passages of the source.
Columns and labels:
Type in all cases: cell-based
[1] = tested on: HIV-1 Res 2 (L33S); conditions: Table 2
[2] = tested on: HIV-1 pseudotyped with Res 2 Env (HR1 mutant), HXB2; assay: Viral infectivity assay, Res 2 Env of Table 1 (HR1 mutant); conditions: HOS-CD4-Les cells, read-out: IC50 (±SEM), Res 2 Env (HR1 mutant)
[3] = tested on: HIV-1 pseudotyped with Res 3 Env (HR2 mutant, N637K), HXB2
[4] = tested on: HIV-1 pseudotyped with V549E mutant Env (Res1, V38E) from strain HXB2

Work on CC[C@H](C)[C@H](NC(=O)[C@H](CC(C)C)NC(=O)[C@H](CO)NC(=O)[C@H](Cc1c[nH]cn1)NC(=O)[C@@H](NC(=O)[C@H](CC(C)C)NC(=O)[C@H](CO)NC(=O)[C@@H](NC(=O)[C@H](Cc1ccc(O)cc1)NC(=O)[C@H](CCCCN)NC(=O)[C@H](CC(N)=O)NC(=O)[C@@H](NC(=O)[C@H](CCC(=O)O)NC(=O)[C@H](CCCNC(=N)N)NC(=O)[C@H](CC(=O)O)NC(=O)[C@H](Cc1c[nH]c2ccccc12)NC(=O)[C@H](CCC(=O)O)NC(=O)[C@H](CCSC)NC(=O)[C@H](Cc1c[nH]c2ccccc12)NC(=O)[C@@H](NC(=O)[C@@H](NC(=O)[C@H](Cc1c[nH]cn1)NC(=O)CNC(=O)CN)[C@@H](C)O)[C@@H](C)O)[C@@H](C)CC)[C@@H](C)CC)[C@@H](C)CC)C(=O)N[C@@H](CCC(=O)O)C(=O)N[C@@H](CCC(=O)O)C(=O)N[C@@H](CO)C(=O)N[C@@H](CCC(N)=O)C(=O)N[C@@H](CC(N)=O)C(=O)N[C@@H](CCC(N)=O)C(=O)N[C@@H](CCC(N)=O)C(=O)N[C@@H](CCC(=O)O)C(=O)N[C@@H](CCCCN)C(=O)N[C@@H](CC(N)=O)C(=O)N[C@@H](CCC(=O)O)C(=O)N[C@@H](CCC(N)=O)C(=O)N[C@@H](CCC(=O)O)C(=O)N[C@@H](CC(C)C)C(=O)N[C@@H](CC(C)C)C(=O)NCC(=O)NCC(=O)N[C@@H](Cc1c[nH]cn1)C(=O)N[C@@H](Cc1c[nH]cn1)C(=O)N[C@@H](Cc1c[nH]cn1)C(=O)N[C@@H](Cc1c[nH]cn1)C(=O)N[C@@H](Cc1c[nH]cn1)C(=O)N[C@@H](Cc1c[nH]cn1)C(=O)O [C37-KYI] yielded an IC50 [1] of 1 ± 0.2 nM, an IC50 [2] of 0.6 ± 0.1 nM and an IC50 ([3]; Table 1, HOS-CD4-Les cells, read-out: IC50 (±SEM), Res 3 Env (HR2 mutant)) of 4.1 ± 1 nM. For the same compound, the IC50 ([3]; Table 2, read-out: IC50, Res 3 (N123K/L204I)) was 4.1 ± 1 nM, the IC50 ([4]; Table 1, HOS-CD4-Les cells, read-out: IC50 (±SEM), Res 1 Env (HR1 mutant)) was 4.2 ± 1 nM and the IC50 ([4]; Table 2, read-out: IC50, Res 1 (V38E)) was 4.2 ± 1 nM.

From patent US20100029568A1, “TIGHTER-BINDING C-PEPTIDE INHIBITORS OF HIV-1 ENTRY” (priority 2007, published 2010)
